Data source: PubChem BioAssay AID1259414 (Drosophila RNAi Screening Center, 2018)
The screen tested about 24,000 reagents; shown is a random part of those with a known target gene and a result. Of all reagents, about 1,210 (5%) are marked active. 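Inactive calls also include excluded dsRNAs with several or no targets, genes unexpressed in JW18, and well A1, regardless of score.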 A plus sign joins genes that one reagent is predicted to hit.

- Test: 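Genome-wide screen for host control of endosymbiont load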 (primary screen)
- System: Drosophila JW18 cells infected with Wolbachia
- Reagents: long dsRNA against Drosophila genes, 0.25 µg dsRNA per well of a 384-well plate
- Timing: 5 days
- Conditions: cells persistently infected with Wolbachia before knock-down; no added drug
- Detection: 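Automated imaging of bacterial rRNA staining divided by host cell count, reported as plate-normalised robust z-score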
- Direction: Wolbachia per cell robust z: higher = more Wolbachia per host cell than the plate typical
- Active means: 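Hit when robust z is 1.5 or more, or -1.5 or less, in at least two of three replicates; excludes dsRNAs with several or no targets, genes not expressed in JW18 and well A1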

| gene | DRSC id | Wolbachia per cell robust z, rep 1 | Wolbachia per cell robust z, rep 2 | Wolbachia per cell robust z, rep 3 | call |
| --- | --- | --- | --- | --- | --- |
| tai | DRSC02673 | 0.858 | -2.2 | 0.399 | inactive |
| tai | DRSC40802 | -0.902 | 0.547 | 0.0334 | inactive |
| Lcp2 | DRSC07456 | -1.04 | -0.925 | 1.31 | inactive |
| Lcp2 | DRSC41546 | -1.59 | -2.45 | 0.799 | inactive |
| CG33672 + Mvk + spt4 | DRSC06628 | -0.547 | -0.433 | 0.159 | inactive |
| Septin1 | DRSC20573 | 0.388 | 0.776 | 0.89 | inactive |
| CG31915 | DRSC03000 | 0.142 | 0.441 | 0.624 | inactive |
| Tom7 | DRSC05135 | -6.64 | -0.551 | 0.294 | inactive |
| Tom7 | DRSC07113 | -3.92 | -1.28 | -0.169 | inactive |
| CG6012 | DRSC02921 | -1.51 | -5.96 | -1.2 | inactive |
| CG6179 | DRSC19973 | 0.351 | 0.251 | -4.09 | inactive |
| CR33294 | DRSC22950 | -0.872 | -1.61 | -4.46 | inactive |
| Fbl6 | DRSC06335 | 0.282 | -0.31 | 0.497 | inactive |
| Fbl6 | DRSC24271 | -1 | 0.805 | -10.8 | inactive |
| EcR | DRSC04906 | 1.32 | 1.12 | 0.598 | inactive |
| EcR | DRSC04910 | -0.626 | 1.44 | 0.423 | inactive |
| EcR | DRSC39130 | -4.31 | 0.612 | -1.55 | active |
| Col4a1 | DRSC03291 | -0.263 | -0.0812 | -0.445 | inactive |
| CG13891 | DRSC08361 | 0.446 | -1.16 | 0.407 | inactive |
| CG13891 | DRSC25733 | 0.833 | 1.24 | -0.416 | inactive |
| EMC6 | DRSC14386 | 0.515 | 0.539 | 0.205 | inactive |
| mRpL53 + CG33155 | DRSC05461 | 0.0749 | 1.33 | 1.2 | inactive |
| mRpL53 + CG33155 | DRSC29467 | -1.06 | -6.19 | -0.633 | inactive |
| NimA | DRSC01353 | -0.729 | -1.51 | -2.51 | inactive |
| NimA | DRSC22170 | 1.01 | 0.79 | -0.55 | inactive |
| NimA | DRSC28421 | 0.827 | 0.296 | 0.118 | inactive |
| NimA | DRSC28852 | 0.475 | -1.88 | 0.678 | inactive |
| CG6527 | DRSC10659 | 0.246 | -0.23 | -1.22 | inactive |

Only “Wolbachia per cell robust z, rep 3” (3 entries from above):
EcR [DRSC04910]	0.423
EcR [DRSC39130]	-1.55
Col4a1 [DRSC03291]	-0.445
